Laboratory results taken from patent publication US9452154B2, “Methods for treating HCV” (Gilead Sciences, Inc., priority 2010, dated 2016).

System: HCV genotype 1a replicon
Experiment: Biological Example 3: antiviral combination studies with Compound 4 (MacSynergy II)
Settings: in combination with Compound 4

Structure (SMILES) | Interaction
Fc1ccccc1-c1nc2ccn(Cc3ccc(-c4ccc(C(F)(F)F)cc4C(F)(F)F)nn3)cc-2n1 [Compound 1, 5-((6-(2,4-bis(trifluoromethyl)phenyl)pyridazin-3-yl)methyl)-2-(2-fluorophenyl)-5H-imidazo[4,5-c]pyridine] | Minor synergy (Minor synergy: >25 and ≦50 nM^2%)
CC1=CC[C@H](C(=O)N(c2cc(C#CC(C)(C)C)sc2C(=O)O)[C@H]2CC[C@](O)(CO[C@H]3CCOC3)CC2)CC1 [Compound 5, 5-(3,3-dimethylbut-1-yn-1-yl)-3-[(cis-4-hydroxy-4-{[(3S)-tetrahydrofuran-3-yloxy]methyl}cyclohexyl){[(1R)-4-methylcyclohex-3-en-1-yl]carbonyl}amino]thiophene-2-carboxylic acid] | Minor synergy (Minor synergy: >25 and ≦50 nM^2%)
CC[C@@H]1C[C@]1(NC(=O)[C@@H]1C[C@@H](Oc2cc(-c3csc(NC(C)C)n3)nc3c(Cl)c(OCCN4CCOCC4)ccc23)CC1C(=O)[C@@H](NC(=O)O[C@@H]1C[C@@H]2C[C@@H]2C1)C(C)(C)C)C(=O)O (stereo partly drawn) [Compound 3] | Minor synergy (Minor synergy: >25 and ≦50 nM^2%)
